Measured values taken from patent publication US5807688A (priority 1995, dated 1998).

Experiments:
[1] = system: JAR human choriocarcinoma cell line; conditions: cited from earlier work
LoVo cells = test: Sulforhodamine B (SRB) cytotoxicity assay; conditions: 2 μM, 1 h incubation
[2] = system: colorectal tumour cells (LoVo); conditions: in vitro cytoxicity; cited from earlier work

O=C(O)c1ccc(N(CCCl)CCCl)cc1
IC50 [1]: > 700000 nM

Oc1ccc(N(CCCl)CCCl)cc1
LoVo cells knocked out (LoVo cells): ca. 50% | IC50 [2]: 1000 nM
